Laboratory results reported in paper PMC4829233, “Identification of Novel Chemical Scaffolds Inhibiting Trypanothione Synthetase from Pathogenic Trypanosomatids” (PLoS Neglected Tropical Diseases, 2016).
Values joined by “and” are separate entries in the source; they are usually repeats but may differ in a detail not shown here. Equal entries are not always repeated. Only a part of the results on these compounds is given; other tests are left out.

Amino acid sequences for entries named in this document (tags omitted). Residues count along the entry.
UniProt Q8IEX1, 1-627: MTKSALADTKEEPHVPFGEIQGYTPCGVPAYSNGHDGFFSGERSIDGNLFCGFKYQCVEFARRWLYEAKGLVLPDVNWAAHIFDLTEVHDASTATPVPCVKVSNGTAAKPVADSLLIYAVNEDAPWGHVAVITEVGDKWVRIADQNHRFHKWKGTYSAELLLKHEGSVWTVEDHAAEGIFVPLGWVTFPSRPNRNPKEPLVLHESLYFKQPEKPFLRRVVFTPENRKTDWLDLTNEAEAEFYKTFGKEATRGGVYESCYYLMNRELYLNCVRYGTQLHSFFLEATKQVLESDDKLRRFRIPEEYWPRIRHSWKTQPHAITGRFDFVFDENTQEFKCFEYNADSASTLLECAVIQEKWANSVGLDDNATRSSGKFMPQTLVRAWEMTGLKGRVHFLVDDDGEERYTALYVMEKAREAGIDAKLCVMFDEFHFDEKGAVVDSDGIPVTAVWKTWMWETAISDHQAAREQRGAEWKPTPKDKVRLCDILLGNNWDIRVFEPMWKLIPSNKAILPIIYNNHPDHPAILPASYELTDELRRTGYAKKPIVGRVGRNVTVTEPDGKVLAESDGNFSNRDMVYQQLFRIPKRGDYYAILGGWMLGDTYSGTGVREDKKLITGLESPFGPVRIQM
UniProt Q9GT49, whole entry: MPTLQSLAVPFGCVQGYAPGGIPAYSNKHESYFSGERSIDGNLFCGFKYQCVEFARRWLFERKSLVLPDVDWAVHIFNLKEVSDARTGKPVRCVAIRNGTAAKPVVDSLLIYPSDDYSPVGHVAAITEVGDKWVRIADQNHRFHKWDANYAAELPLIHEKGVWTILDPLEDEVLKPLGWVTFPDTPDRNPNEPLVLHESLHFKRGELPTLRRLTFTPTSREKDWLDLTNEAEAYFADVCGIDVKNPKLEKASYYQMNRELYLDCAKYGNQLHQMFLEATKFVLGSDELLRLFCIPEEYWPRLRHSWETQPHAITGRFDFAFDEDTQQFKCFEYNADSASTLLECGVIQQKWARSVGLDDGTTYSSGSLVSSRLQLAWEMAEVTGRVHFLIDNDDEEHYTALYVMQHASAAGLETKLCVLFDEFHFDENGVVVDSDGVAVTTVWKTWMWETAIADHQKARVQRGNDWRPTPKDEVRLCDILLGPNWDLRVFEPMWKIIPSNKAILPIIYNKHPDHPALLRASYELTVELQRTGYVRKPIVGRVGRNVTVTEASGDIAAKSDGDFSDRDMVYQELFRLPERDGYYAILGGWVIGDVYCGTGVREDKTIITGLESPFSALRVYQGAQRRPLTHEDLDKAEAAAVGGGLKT

Legend:
Test in all cases: TryS screening assay (BIOMOL GREEN end-point)
Format in all cases: biochemical
[1] = biological target: LiTryS (Leishmania infantum trypanothione synthetase) (Leishmania infantum, UniProt A4I2Z3); settings: compound 30 μM; 150 μM ATP, 2 mM SP, […] GSH; relative to DMSO control
[2] = biological target: TbTryS (Trypanosoma brucei trypanothione synthetase) (Trypanosoma brucei brucei, UniProt Q8IEX1); settings: compound 30 μM; 150 μM ATP, 2 mM SP, 0.05 mM GSH; relative to DMSO control
[3] = biological target: TcTryS (Trypanosoma cruzi trypanothione synthetase) (Trypanosoma cruzi, UniProt Q9GT49); settings: compound 30 μM, 150 μM ATP, 2 mM SP, 0.57 mM GSH

For `[O-][n+]1onc2c1c1no[n+]([O-])c1c1no[n+]([O-])c21`, the “LiTryS Activity ± 2σn-1 (%)” value [1] was 111.5 ± 14.5%, the “TbTryS Activity ± 2σn-1 (%)” value [2] was 118.8 ± 2.4% and the “% TcTryS inhibition ± 2σn-1” value [3] was “about 40%”. The “TcTryS Activity ± 2σn-1 (%)” value ([3]; relative to DMSO control) was 64.4 ± 3.8% and 64.4 ± 3.8; 4%.
